Results of unrelated studies side by side (data: NIAID ChemDB).

Shared fields: tests in culture; organism: HIV-1

An empty or dashed field is not shown.

SMILES	conditions	strain or isolate	measure	cells	mutations	method	result
CC(=O)N1CCC(C(=O)N(CCCN2CCC(Cc3ccc(C(N)=O)cc3)CC2)c2ccc(C)c(Cl)c2)CC1	20% FBS	JR-FL R5	EC50	PBMC	-	p24	0.00064 µM
O=c1[nH]cnc2c1ncn2[C@H]1CC[C@@H](CO)O1	-	8618 CLADE B CLADE B	EC50	PBMC	-	p24	2 µM
Cc1ccnc2c1NC(=O)c1cccnc1N2C1CC1	-	NNRTI-resistant (RT V108I)	EC50	MAGI	RT-V108I	β-galactosidase	0.29 µM
O=c1[nH]cnc2c1ncn2[C@H]1CC[C@@H](CO)O1	-	IIIB	EC50	PBL	-	p24	0.18 µM
O=C1N(Cc2ccc(CO)cc2)[C@H](Cc2ccccc2)[C@H](O)[C@@H](O)[C@@H](Cc2ccccc2)N1Cc1ccc(CO)cc1	-	NL4-3	EC95	MT-4	PR-L10R M46I L63P V82T I84V	p24	3 µM
O=C1N(Cc2ccc(CO)cc2)[C@H](Cc2ccccc2)[C@H](O)[C@@H](O)[C@@H](Cc2ccccc2)N1Cc1ccc(CO)cc1	-	R clinical isolate	EC50	PBMC	-	p24	0.04 µM
Cc1ccnc2c1NC(=O)c1cccnc1N2C1CC1	clinical isolate	CLADE B	EC50	PBMC	-	cytopathic effect / XTT	0.07 µM
CCc1c(Sc2ccccn2)n(COCc2ccccc2)c(=O)[nH]c1=O	-	NL4-3	EC50	CEM + CEM-SS	RT-V108I	cytopathic effect / XTT	0.05 µM
Cn1c2ccccc2c2c1cc(C#N)c(=O)n2-c1ccc([N+](=O)[O-])cc1	-	NL4-3 WT	EC50	HeLa	-	luciferase	0.023 µM
CC(C)CN(C[C@@H](O)[C@H](Cc1ccccc1)NC(=O)O[C@H]1CCOC1)S(=O)(=O)c1ccc(N)cc1	-	IIIB	EC50	MT-2	D437N	p24 / ELISA	0.0473 µM
N#CC[C@H](C1CCCC1)n1cc(-c2ncnc3[nH]ccc23)cn1	-	LAI	EC90	Primary T lymphocytes	-	p24 / ELISA	6.1 µM
Cc1ccnc2c1NC(=O)c1cccnc1N2C1CC1	-	IIIB	EC50	CEM + CEM-SS	RT-P236L	cytopathic effect / XTT	0.023 µM
O=C(Nc1cc(S(=O)(=O)O)cc2cc(S(=O)(=O)O)c(N=Nc3ccc(N=Nc4c(S(=O)(=O)O)cc5cc(S(=O)(=O)O)cc(NC(=O)c6cccc(Cl)c6Cl)c5c4O)cc3)c(O)c12)c1ccc(Cl)cc1Cl	-	SF162	EC50	MONO/MACRO + Monocytes/macrophages	-	-	0.16 µg/mL
CC(C)=CCN1c2cc(Cl)cc3[nH]c(=S)n(c23)C[C@@H]1C	-	-	EC95	MT-4	RT-M41L T215Y L100I	-	0.2 µM
CCOP(=O)(COc1ccc(C[C@H](NC(=O)O[C@H]2CO[C@H]3OCC[C@H]32)[C@H](O)CN(CC(C)C)S(=O)(=O)c2ccc(OC)cc2)cc1)OCC	-	IIIB	EC50	MT-2	I401T R409K D437N	p24 / ELISA	0.008 µM
Cc1cn([C@H]2C[C@H](N=[N+]=[N-])[C@@H](CO)O2)c(=O)[nH]c1=O	-	NL4-3	EC50	CEM + CEM-SS	RT-A98G	XTT	0.01 µM
Cc1cn([C@H]2C[C@H](N=[N+]=[N-])[C@@H](CO)O2)c(=O)[nH]c1=O	-	IIIB/LAI	EC50	PBL	-	p24	0.004 µM
Cc1ccnc2c1NC(=O)c1cccnc1N2C1CC1	-	NL4-3	EC50	CEM + CEM-SS	RT-Y188C	XTT	3.2 µM
C/C=C/CSc1cc(NC(=S)c2ccsc2C)ccc1Cl	-	UC10-resistant (RT Y181C K101E)	EC50	CEM + CEM-SS	RT-Y181C K101E	cytopathic effect / XTT	>2 µM
Cc1c(Sc2ccccc2)n(COCCO)c(=O)[nH]c1=O	-	IIIB	EC50	CEM + CEM-SS	RT-V108I	cytopathic effect / XTT	>325 µM
Cc1occc1C(=S)Nc1ccc(Cl)c(/C=N/OC(C)(C)C)c1	-	Diphenyl sulfone-resistant (RT-Y181C)	EC50	CEM + CEM-SS	RT-Y181C	cytopathic effect / XTT	1.1 µM
C[C@H](Cn1cnc2c(N)ncnc21)OCP(=O)(O)O	-	JF4A ddC-resistant (RT T69D)	EC50	MT-2	RT-T69D	p24	1.5 µM
C#C[C@]1(CO)O[C@@H](n2cnc3c(N)nc(F)nc32)C[C@@H]1O	-	Clinical isolate	EC50	MT4-GFP	T165A/M184I	fluorescence	0.0078 µM
Cc1cc(C#Cc2ccc(N)cc2)cc(C)c1Oc1ccnc(Nc2ccc(C#N)cc2)n1	-	IIIB	EC50	MT-4	L100I	MTT	0.259 µM
COC(=O)[C@H](C)NP(=O)(OC[C@@H]1C=C[C@H](n2cc(C)c(=O)[nH]c2=O)O1)Oc1ccc(Br)cc1	-	52534-2 NRTI resistant recombinant	EC50	PBMC	RT-M41L T69ins L74V M184V L210W T215Y	p24	0.0579 µM
Cc1cn([C@H]2C[C@H](N=[N+]=[N-])[C@@H](CO)O2)c(=O)[nH]c1=O	-	NRTI resistant	EC50	HeLa	RT-K65R K70R V75I F77L F116Y Q151M	luciferase	>0.0164 µM
Cc1ccnc2c1NC(=O)c1cccnc1N2C1CC1	-	Clinical isolate	EC50	C8166	WAN	ELISA	0.1 µM
CO[P@](=O)(c1cc(C)cc(/C=C/C#N)c1)c1c(C(N)=O)[nH]c2ccc(Cl)cc12	-	BH10	EC50	MT-4	K103N	-	0.00014 µM
CC(C)CN(C[C@@H](O)[C@H](Cc1ccccc1)NC(=O)[C@H](CC(N)=O)NC(=O)c1ccc2ccccc2n1)C(=O)NC(C)(C)C	-	NL4-3	EC50	MT-4	PR-M46I L63P V82T	p24	<0.4 µM
CC(C)c1nc(CN(C)C(=O)N[C@H](C(=O)N[C@@H](Cc2ccccc2)C[C@H](O)[C@H](Cc2ccccc2)NC(=O)OCc2cncs2)C(C)C)cs1	-	NL4-3	EC50	MT-4	PR-D30N	p24	<0.01 µM
Cc1cc(C#Cc2cccnc2)cc(C)c1Oc1ccnc(Nc2ccc(C#N)cc2)n1	-	IIIB	EC50	MT-4	L100I	MTT	0.076 µM
Cc1cn([C@H]2C[C@H](N=[N+]=[N-])[C@@H](CO)O2)c(=O)[nH]c1=O	-	-	EC90	Macrophage	-	p24 / ELISA	0.07 µM
S=C(NCCc1cccs1)Nc1ccc(Br)cn1	-	M558-2 Clinical isolate NRTI-resistant	EC50	HT4 + HeLa	RT-M41L T215N	plaque count	0.074 µM
C/C=C/CSc1cc(NC(=S)c2ccsc2C)ccc1Cl	-	Costatolide-resistant (RT L100I T139I)	EC50	CEM + CEM-SS	RT-L100I T139I	XTT	>2 µM
Cc1cn([C@H]2C[C@H](N=[N+]=[N-])[C@@H](CO)O2)c(=O)[nH]c1=O	-	7324-1 NRTI resistant recombinant	EC50	PBMC	RT-M41L D67N T69N K70R T215F K219E	RT activity	0.108 µM
Cc1cn([C@@H]2O[C@H](CO[Si](C)(C)C(C)(C)C)[C@@]3(OS(=O)(=O)C=C3N)[C@H]2O[Si](C)(C)C(C)(C)C)c(=O)[nH]c1=O	-	UC781-R (RT-Y181C)	EC50	CEM + CEM-SS	RT-Y181C	cytopathic effect / XTT	>10 µM
CCCc1cc(=O)oc2c3c(c4c(c12)OC(C)(C)C=C4)O[C@H](C)[C@@H](C)[C@@H]3O	-	NL4-3	EC50	CEM + CEM-SS	RT-V108I	XTT	0.3 µM
Nc1nc(NC2CC2)c2ncn([C@H]3C=C[C@@H](CO)C3)c2n1	-	Recombinant	EC50	HeLa	RT-M184V	luciferase	7.74 µM
Cc1cc(C#Cc2cccc(N)c2)cc(C)c1Oc1ccnc(NC2CCN(Cc3ccc(S(N)(=O)=O)cc3)CC2)n1	-	IIIB	EC50	MT-4	-	MTT	0.006 µM
CCCc1cc(=O)oc2c3c(c4c(c12)OC(C)(C)C=C4)O[C@@H](C)[C@H](C)[C@@H]3O	-	IIIB	EC50	CEM + CEM-SS	-	XTT	0.2 µM
Cc1cn([C@H]2C[C@H](N=[N+]=[N-])[C@@H](CO)O2)c(=O)[nH]c1=O	-	4XAZT+Y181C (RT D67N K70R Y181C T215Y K219Q)	EC50	CEM + CEM-SS	RT-D67N K70R Y181C T215Y K219Q	cytopathic effect / XTT	0.04 µM
Cc1ccnc2c1NC(=O)c1cccnc1N2C1CC1	-	Thiazolobenzimidazole-resistant (RT V108I)	EC50	CEM + CEM-SS	RT-V108I	cytopathic effect / XTT	0.3 µM
CCN(c1nc(F)ccc1NC(C)(C)C)C1CCN(C(=O)c2cc3cc(NC(=O)N4CCN(C)CC4)ccc3[nH]2)CC1	-	IIIB	EC50	MT-2	I401T R409K D437N	p24 / ELISA	0.0261 µM
CC(C)(C)NC(=O)[C@@H]1CN(Cc2cccnc2)CCN1C[C@@H](O)C[C@@H](Cc1ccccc1)C(=O)N[C@H]1c2ccccc2C[C@H]1O	-	1617-1 NRTI resistant recombinant	EC50	PBMC	RT-T69K K70G V75I F77L F116Y Q151M M184V	RT activity	0.0052 µM
Cc1cc(C#Cc2cccc(N)c2)cc(C)c1Oc1ccnc(NC2CCN(Cc3cccc(C(N)=O)c3)CC2)n1	-	IIIB	EC50	MT-4	RES056	MTT	>0.63 µM
O=C1Nc2ccc(Cl)cc2[C@@](C#CC2CC2)(C(F)(F)F)O1	-	-	EC90	Primary T lymphocytes	K65R	p24 / ELISA	0.02 µM

2 of the rows above, restated:

{"SMILES": "CC(C)CN(C[C@@H](O)[C@H](Cc1ccccc1)NC(=O)[C@H](CC(N)=O)NC(=O)c1ccc2ccccc2n1)C(=O)NC(C)(C)C", "strain or isolate": "NL4-3", "measure": "EC50", "cells": "MT-4", "mutations": "PR-M46I L63P V82T", "method": "p24", "result": "<0.4 µM"}
{"SMILES": "O=C1N(Cc2ccc(CO)cc2)[C@H](Cc2ccccc2)[C@H](O)[C@@H](O)[C@@H](Cc2ccccc2)N1Cc1ccc(CO)cc1", "strain or isolate": "NL4-3", "measure": "EC95", "cells": "MT-4", "mutations": "PR-L10R M46I L63P V82T I84V", "method": "p24", "result": "3 µM"}

Neighbouring rows are from separate reports. ECn: concentration that inhibits the pathogen or its effect by n%.